Measurements: US20040072369A1, “Methods for assaying for urea and kits for use therein” (priority 2002, published 2004)

Test: Frequency-domain Trp fluorescence lifetime of nUreR Trp mutants with and without urea
Format: binding

B1: Y151W nUreR (protein, UniProt Q02458 1-293, looked up, variant Y151W)
Urease operon transcriptional …: MEYKHILSSNQISLKTFYIENPMIAIVYGAKGEICINGQTITVTTNLTLIIPKYSQVSCDVTNFFPTKPIELHTLVLSETELQSVFSLLKPLIKSGAPITRHLPDYHLSTPEVVKTNFTLLQQCLPLEHGTPSQETLFMQQSLFFILLAVWHEGVDILNIFRFNYDEPKNQAITHLITQDPQRKWHLEDVAKTLYTTPSTLRRHLSKEGVSFCQLLLDVRMPIALNYLTFSNYSVFQISHRCGFGSNAYFCDAFKRKYGMTPSQFRTQSRQANDPNAIATMASQNDESIKKVF
- <τ> Trp fluorescence lifetime, 150 mM urea (150 mM urea): 1.95 ns
- <τ> Trp fluorescence lifetime, No Urea (no urea): 1.98 ns
